In this data set the test system is DNA polymerase used in qPCR. Put plainly: Direct impact of the complex on the DNA polymerase used in qPCR. The format is biochemical. For orientation: In qPCR the cycle at which signal appears reflects the starting amount.

In the case of `N#Cc1ccccc1.[C-]#[O+].[C-]#[O+].[C-]#[O+].[O-]n1ccccc1=S.[Re+]` [complex 4, fac-[Re(CO)3(pth)(benzonitrile)]], the “dCt value (treated vs untreated)” value came to 0.34. Besides, the “Ct value of treated sample (effect on DNA polymerase)” value (untreated: 16.67 ± 0.58) came out at 17.01 ± 0.48.

The values above are taken from paper PMC12391994, “Synthesis of a fac-Tricarbonylrhenium(I) Complex with Pyrithione, Its Physicochemical Characterization, and Assessment of Biological Effects” (ACS Omega, 2025).
